# Laboratory results published in publication PMC9017343.
# Molecular target: SARS-CoV S trimer (ectodomain) (SARS-CoV) (UniProt P59594)
# Experiment: SPR
substance,measurement,value
S309,Kd,1.95 pM
same,koff,2.63e-07 s⁻¹
